T1: porcine epidemic diarrhea virus S protein (PEDV-S1) (porcine epidemic diarrhea virus)
T1 chain: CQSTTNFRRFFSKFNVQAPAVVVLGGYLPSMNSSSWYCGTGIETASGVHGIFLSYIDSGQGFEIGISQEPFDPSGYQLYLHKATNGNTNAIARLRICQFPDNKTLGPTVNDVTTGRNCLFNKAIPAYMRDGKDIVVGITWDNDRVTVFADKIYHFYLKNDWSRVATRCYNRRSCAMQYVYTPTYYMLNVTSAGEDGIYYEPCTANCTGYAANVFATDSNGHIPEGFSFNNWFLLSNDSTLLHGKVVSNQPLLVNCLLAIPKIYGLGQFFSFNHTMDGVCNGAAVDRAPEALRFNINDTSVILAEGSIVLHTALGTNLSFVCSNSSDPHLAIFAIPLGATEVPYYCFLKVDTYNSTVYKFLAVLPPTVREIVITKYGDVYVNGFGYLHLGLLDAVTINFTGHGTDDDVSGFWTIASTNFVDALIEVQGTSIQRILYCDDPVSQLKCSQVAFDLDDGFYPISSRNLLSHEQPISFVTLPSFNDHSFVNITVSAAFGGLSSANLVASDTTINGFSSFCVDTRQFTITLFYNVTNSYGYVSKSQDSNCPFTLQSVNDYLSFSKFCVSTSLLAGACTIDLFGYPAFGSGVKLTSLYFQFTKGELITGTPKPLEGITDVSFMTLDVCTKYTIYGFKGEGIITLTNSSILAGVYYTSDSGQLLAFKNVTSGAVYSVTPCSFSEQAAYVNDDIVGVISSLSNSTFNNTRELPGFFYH


Experiments:
[1] = target: T1, porcine epidemic diarrhea virus S …; assay: SPR; conditions: both partners purified
[2] = target: T1, porcine epidemic diarrhea virus S …; assay: ELISA; conditions: both partners purified

Binder	Kd [1] [µM]	P/N value [2]
FWKHRIFWKHRI [peptide 111740]	3.6	
FWKSKR [peptide 110766]		167

Reference: PMC9965349 (Viruses, 2023)
